Source: US9079977B2, “Anti-trypanosomal peptides and uses thereof” (priority 2009, dated 2015)

Assay: Parallax analysis of tryptophan depth in brominated PC liposomes
Settings: for F1/F2 ± S.D. (tryptophan fluorescence with shallow / deep quencher): 500 nM peptide, 37° C., 22 hours

Row | Sequence | F1/F2 ± S.D. (tryptophan fluorescence with shallow / deep quencher) | also measured
1 | FHQIGAALLYFYWIILNSIY (derivative of SHP-3 having a tryptophan substitution at position 13) [SHP-3ΔW13, SHP-3 tryptophan variant, tryptophan at position 13] | 0.9912 ± 0.0787 | 
2 | SDLGAVIWLLLGGRQLFA (derivative of SHP-1 having a tryptophan substitution at position 8) [SHP-1ΔW8, SHP-1 tryptophan variant, tryptophan at position 8] | 0.9767 ± 0.0717 | 
3 | FHQIGAALLYFYGIILNSIW (derivative of SHP-3 having a tryptophan substitution at position 20) [SHP-3ΔW20, SHP-3 tryptophan variant, tryptophan at position 20] | 1.1620 ± 0.3194 | 
4 | FHQIWAALLYFYGIILNSIY (amino acid sequence of small hydrophobic peptide -3 (SHP-3)) [Small hydrophobic peptide 3, derived from an apolipoprotein] | 0.9202 ± 0.1260 | tryptophan depth from membrane interface, position 1 (N-terminal tryptophan variant): inefficiently quenched; tryptophan depth below the interface, position 5 (SHP-3 native tryptophan): approximately 1.6 Å; tryptophan depth below the interface, position 13 (SHP-3 tryptophan variant): approximately 4.7 Å; tryptophan depth below the interface, C-terminal tryptophan (SHP-3 tryptophan variant, position 20): approximately 11.2 Å
5 | SDLGAVISLLLGGRQLFW (derivative of SHP-1 having a tryptophan substitution at position 18) [SHP-1ΔW18, SHP-1 tryptophan variant, tryptophan at position 18] | 0.9285 ± 0.1557 | 
6 | WDLGAVISLLLGGRQLFA (derivative of SHP-1 having a tryptophan substitution at position 1) [SHP-1ΔW1, SHP-1 tryptophan variant, tryptophan at position 1] | 0.8897 ± 0.1112 | 
